Anti-infective test results gathered from many reports (values: NIAID ChemDB through PubChem).

All rows: toxicity to cultured cells; cell line: VERO; read-out: CC50

Rows are shuffled and stem from different studies.

structure,read by,result
CN(C)CCc1c2c(nc3ccccc13)C(=O)c1cccnc1C2=O,,0.68 µg/mL
CC1(C)[C@@H](O[C@H]2O[C@H](C(=O)O)[C@@H](O)[C@H](O)[C@H]2O[C@@H]2O[C@H](C(=O)O)[C@@H](O)[C@H](O)[C@H]2O)CC[C@]2(C)[C@H]3C(=O)C=C4[C@@H]5C[C@@](C)(C(=O)O)CC[C@]5(C)CC[C@@]4(C)[C@]3(C)CC[C@@H]12,,2418 µg/mL
[N-]=[N+]=N[C@H]1C[C@H](n2cc(/C(I)=C\I)c(=O)[nH]c2=O)O[C@@H]1CO,,52.3 µM
O=C(N=Nc1c(Cl)c(O)c2ccccc2c1O)C(F)(F)F,,4.46 µg/mL
C/C(=N\NC(=O)c1ccncc1)c1ccc(NC(=S)Nc2ccc(Br)cc2)cc1,,133 µM
CC(C)(C)c1ccc(C(=O)Nc2nc(-c3ccccn3)cs2)cc1,luminescence,26 µM
CC1(C)N=C(N)N=C(N)N1c1ccc(CCCC(=O)Nc2ccc(S(=O)(=O)F)cc2)c(Cl)c1.CCS(=O)(=O)O,,14.9 µg/mL
O=C(Cc1nn(Cc2ccc(Br)cc2F)c(=O)c2ccccc12)N/N=C/c1ccccc1[N+](=O)[O-],MTT,>122.5 µM
Cc1cccc(C)c1Nc1nc(-c2cccnc2)cs1,luminescence,94 µM
CCc1cn([C@H]2C[C@H](N=[N+]=[N-])[C@@H](CO)O2)c(=O)[nH]c1=O,,~2000 µM
C[C@]12CCC3C(CC[C@H]4C[C@@H](O)CC[C@]34C)C1C[C@@H](O)C2=O,MTT,489.5 µM
C/C(=N\NC(=O)c1ccncc1)c1ccc(NC(=S)Nc2ccccc2)cc1,,160 µM
c1ccc(Nc2nc(-c3ccc4ccccc4n3)cs2)nc1,luminescence,6 µM
Cc1c(Cl)cccc1NC(=O)Cc1nn(Cc2ccc(Br)cc2F)c(=O)c2ccccc12,MTT,>121 µM
Cc1cccc(C)c1Nc1nc(-c2ccncn2)cs1,luminescence,51 µM
C[n+]1c(-c2ccc(/C=N/NC(=O)c3ccc(C(=O)N/N=C/c4ccc(-c5cn6ccccc6[n+]5C)cc4)cc3)cc2)cn2ccccc21,,92.04 µg/mL
C[C@]1(CCP(=O)(O)O)CO[C@@H](n2cnc3c(N)ncnc32)C1,,>100 µM
NNC(=O)c1ccccn1,,11 µg/mL
CCO/N=C1/C(=O)N(CCOCCOCCOCCn2c(O)c(N=O)c3ccccc32)c2ccc(C)cc21,MTT,500 µg/mL
C[C@]12CCC3C(CC[C@H]4C[C@@H](O)CC[C@]34C)C1[C@@H](O)CC2=O,MTT,1108 µM
Cc1c(N)nc(C(CC(N)=O)NCC(N)C(N)=O)nc1C(=O)NC(C(=O)NC(C)C(O)CC(=O)NC(C(=O)NC(OC1OC(C)C(N)C(O)C1O)C(O)c1nc(-c2nc(C(=O)NCCC[S+](C)C)cs2)cs1)C(C)O)C(OC1OC(CO)C(O)C(O)C1OC1OC(CO)C(O)C(OC(N)=O)C1O)c1cnc[nH]1.Cl.Cl.Cl.[Cl-],,20 µg/mL
c1ccc(-c2csc(Nc3ccccn3)n2)cc1,luminescence,90 µM
[N-]=[N+]=N[C@H]1C[C@H](n2cc(/C(Cl)=C\I)c(=O)[nH]c2=O)O[C@@H]1CO,,9 µM
O=c1[nH]c(=O)n([C@@H]2C=C[C@H](CO)O2)cc1F,MTT,32 µM
O=C1NC(=O)C([N+](=O)[O-])C(C(=O)N2CCN(c3cc4c(cc3F)c(=O)c(C(=O)O)cn4C3CC3)CC2)N1,MTT,>121 µM
O=C(Cc1nn(Cc2ccc(Br)cc2F)c(=O)c2ccccc12)Nc1ccc(Cl)cc1,MTT,>125 µM
CO/N=C1/C(=O)N(CCOCCOCCOCCn2c(O)c(N=O)c3cc(F)ccc32)c2ccc(F)cc21,MTT,62.5 µg/mL
O=C(Cc1nn(Cc2ccc(Br)cc2F)c(=O)c2ccccc12)NN=C(c1ccccc1)c1ccccc1,MTT,115.4 µM
O=C(O)c1cn(C2CC2)c2cc(N3CCNCC3)c(F)cc2c1=O,MTT,>189 µM
CC(=O)O[C@H]1CC[C@@]2(C)C(=CC[C@@H]3[C@@H]2CC[C@]2(C)C(=O)CC[C@@H]32)C1,MTT,1227 µM
CCn1c(O)c(C(=O)Nc2cccs2)c(=O)n(CC)c1=S,,1.7 µg/mL
O=C(Cc1nn(Cc2ccc(Br)cc2F)c(=O)c2ccccc12)Nc1ccccc1C(F)(F)F,MTT,117 µM
C[C@@]1(CO)[C@H](O)CC[C@@]2(C)[C@H]1CC[C@H]1C[C@@H]3C[C@@]12CC[C@]3(O)CO,,5 µg/mL
C[C@H]1CC(=O)c2c(O)cccc2[C@H]1O,,0.15 µg/mL
Nc1nc(-c2ccc(Br)cc2)cs1,,30 µg/mL
CCN(CC)C(=S)S[Se](SC(=S)N(CC)CC)(SC(=S)N(CC)CC)SC(=S)N(CC)CC,,0.4 µg/mL
CCO/N=C1\C(=O)N(CCOCCOCCOCCN2C(=O)/C(=N/OC)c3cc(F)ccc32)c2ccc(F)cc21,MTT,62.5 µg/mL
CCCCCCCCc1cc2cn(COCCO)c(=O)nc2o1,,4.97 µM
CO[C@H]1/C=C/O[C@@]2(C)Oc3c(C)c(O)c4c(O)c(c(/C=N/N5CCN(C)CC5)c(O)c4c3C2=O)NC(=O)/C(C)=C\C=C\[C@H](C)[C@H](O)[C@@H](C)[C@@H](O)[C@@H](C)[C@H](OC(C)=O)[C@@H]1C,MTT,500 µg/mL
Cc1cc2nc3ccc(N)cc3oc-2cc1=[N+](C)C,,0.98 µg/mL
CCCCCc1ccc(-c2cc3cn(CC=C(CO)CO)c(=O)nc3o2)cc1,,8.7 µM
O=C(Cc1nn(Cc2ccc(Br)cc2F)c(=O)c2ccccc12)N/N=C/c1ccc(F)cc1,MTT,>129.3 µM
O=C1NC(=O)C([N+](=O)[O-])C(C(=O)Nc2ccc(Cl)cc2)N1,MTT,>199.8 µM
COC(=O)[C@H]1[C@H](O)[C@H](C)[C@@H](O)[C@@H](C)/C=C(\C)C2=C3C(=C(C)C(=O)c4c(O)c(c(C)c(OC(C)=O)c43)NC(=O)/C(C)=C/C=C\[C@@H](C)C(O)[C@@H](C)[C@H]1O)OCO2,,59.4 µg/mL
Nc1nc(NC2CC2)c2ncn([C@H]3C=C[C@@H](CO)C3)c2n1,,480 µM
CCCCCc1ccc(C#Cc2cn(COCCO)c(=O)[nH]c2=O)cc1,,7.9 µM
C/C(=N\NC(=O)c1ccncc1)c1ccc(NC(=S)Nc2ccc(C)cc2)cc1,,155 µM
CC1=C(C)C(=O)C(C(C)(C)CC(=O)n2cc(F)c(=O)[nH]c2=O)=C(C)C1=O,,0.9 µg/mL
COC(=O)[C@H](C)NP(=O)(OC[C@@H]1C[C@]12C[C@@H]2n1cnc2c(N)ncnc21)Oc1ccccc1,,27 µM
CC(=O)OC[C@@H]1C=C[C@H](n2cc(F)c(N)nc2=O)O1,MTT,>100 µM
O=C(Cc1nn(Cc2ccc(Br)cc2F)c(=O)c2ccccc12)Nc1ccc(Br)cc1,MTT,>115 µM
OC1CCCN2CCC1O[C@@]13CC[C@@H](OC[C@]45CN6CCCC/C=C\CC[C@](O)(C=C(c7nccc8c7[nH]c7ccccc78)[C@@H]4CC6)C25)[C@@H](O)CCN1C1[C@]2(CN4CCCC/C=C/CC[C@]1(O)C=C(c1nccc5c1[nH]c1ccccc15)[C@@H]2CC4)C3,,>4.76 µg/mL
CCCCCCCCc1cc2cn(CC=C(CO)CO)c(=O)nc2o1,,78.9 µM
CC(=O)O[C@H]1CC[C@]2(C)C3CC[C@@]4(C)C(CCC45OCCO5)C3CC[C@H]2C1,MTT,1536 µM
CC/C=C\C/C=C\C/C=C\C/C=C\C/C=C\CCCC(=O)OC(CO[C@H]1O[C@H](CS(=O)(=O)O)[C@@H](O)[C@H](O)[C@H]1O)OC(=O)CCCCCCCCCCCCCCC,MTT,114 µg/mL
CCCCCc1ccc(C#Cc2cn(C/C=C/C(O)CO)c(=O)[nH]c2=O)cc1,,75.1 µM
CCN1C[C@]2(COC)CC[C@H](OC)[C@]34C1[C@@](O)([C@@H](OC)[C@H]23)[C@@]1(O)C[C@H](OC)C2C[C@@H]4[C@@H]1[C@H]2OC(C)=O,,64 µg/mL
CCn1cc(C(=O)O)c(=O)c2cc(F)c(N3CC(C)N(C(=O)C4NC(=O)NC(=O)C4[N+](=O)[O-])C(C)C3)c(F)c21,MTT,<116.5 µM
Nc1nc(=O)n([C@H]2C=C[C@@H](CO)O2)cc1Br,,>100 µM
CC1CCCN(C(=S)S)C1.CC1CCCNC1,,8.9 µg/mL
C[C@]12CCC3C(CC[C@H]4C[C@@H](O)CC[C@]34C)C1C[C@@H](Br)C2=O,MTT,98.28 µM
Cc1cnc(CC2=C[C@@]3(O)CC/C=C\CCCCN4CC[C@@H]2[C@]2(C[C@@H]5CCCCCCN5C23)C4)cn1,,>4.76 µg/mL
OCCOCCN1CCN(CCCN2c3ccccc3Sc3ccc(C(F)(F)F)cc32)CC1,,20.93 µg/mL
O[C@]12C=C(Cc3cnccn3)[C@@H]3CCN(CCCC/C=C\CC1)C[C@@]31C[C@@H]3CCCCCCN3C12,,>4.76 µg/mL
O=C(Nc1nc(-c2ccccn2)cs1)NC1CCCC1,luminescence,41 µM
CC1=CC(=O)c2c(O)ccc(-c3ccc(O)c4c3C(=O)C(C)=CC4=O)c2C1=O,,233 µg/mL
CCO/N=C1/C(=O)N(CCOCCOCCOCCN2C(=O)C(=O)c3cc(F)ccc32)c2ccc(F)cc21,MTT,125 µg/mL
CC(=O)OCC(=O)Nc1nc(-c2ccccn2)cs1,luminescence,>100 µM
COc1cc(OC)c(N2C(=O)C=C(c3ccccc3)C2=O)c(OC)c1,,20 µg/mL
OC(c1cc(-c2ccc(C(F)(F)F)cc2)nc(C(F)(F)F)c1)C1CCCCN1,,1.39 µg/mL
CCO/N=C1/C(=O)N(CCOCCOCCOCCN2C(=O)C(=O)c3cc(F)ccc32)c2ccc(C)cc21,MTT,62.5 µg/mL
O=C1C(=O)c2nc3ccccc3nc2-c2ccccc21,,0.42 µg/mL
Cc1cn([C@H]2C[C@H](N=[N+]=[N-])[C@@H](CO)O2)c(=O)[nH]c1=O,,29 µM
O=C1CCCN2C(CC1)C[C@]13CN4CCCC/C=C\CC[C@](O)(C=C(c5nccc6c5[nH]c5ccccc56)[C@@H]1CC4)C23,,>4.76 µg/mL
O=C(Cc1nn(Cc2ccc(Br)cc2F)c(=O)c2ccccc12)N/N=C/c1c(Cl)cccc1Cl,MTT,>117 µM
CO[C@@]12[C@H](COC(N)=O)C3=C(C(=O)C(C)=C(N)C3=O)N1C[C@H]1[C@@H]2N1C,,0.4 µg/mL
CCCCCCCCC#Cc1cn(CC=C(CO)CO)c(=O)[nH]c1=O,,28.8 µM
CC(=O)O[C@H]1CC[C@@]2(C)C(=CC[C@@H]3[C@@H]2CC[C@]2(C)C(=O)[C@@H](OC(C)=O)C[C@@H]32)C1,MTT,584.3 µM
COc1ccc2cc1-c1cc(ccc1O)C[C@H]1c3cc4c(cc3CCN1C)Oc1c(OC)cc3c(c1O4)[C@H](C2)N(C)CC3,,2.46 µg/mL
O=C(Cc1nn(Cc2ccc(Br)cc2F)c(=O)c2ccccc12)N/N=C(\c1ccccc1)c1ccc(Br)cc1,MTT,100.8 µM
COC1/C=C\C2=C[C@]34CN5CCCC/C=C\CCC(=C[C@@H](c6nccc7c6[nH]c6ccccc67)[C@H]3CC5)[C@@H]4N2CCC1,,>4.76 µg/mL
CC1=C(O)c2cccc(O)c2C(=O)C1=O,,0.93 µg/mL
CCN(CC)c1ccc2nc3c4ccccc4c(=N)cc-3oc2c1,,0.75 µg/mL
Nc1nc(=O)n([C@@H]2C=C[C@@H](CO)O2)cc1F,,>100 µM
O=C(N/N=C/c1cccs1)c1ccncc1,,>62.5 µg/mL
O=CC1=C[C@@]2(O)CC/C=C\CCCCN3CC[C@@H]1[C@]1(C[C@@H]4/C=C\CCCCN4C12)C3,,>4.76 µg/mL

Repeating the final 8 entries:

structure | read by | result
COc1ccc2cc1-c1cc(ccc1O)C[C@H]1c3cc4c(cc3CCN1C)Oc1c(OC)cc3c(c1O4)[C@H](C2)N(C)CC3 |  | 2.46 µg/mL
O=C(Cc1nn(Cc2ccc(Br)cc2F)c(=O)c2ccccc12)N/N=C(\c1ccccc1)c1ccc(Br)cc1 | MTT | 100.8 µM
COC1/C=C\C2=C[C@]34CN5CCCC/C=C\CCC(=C[C@@H](c6nccc7c6[nH]c6ccccc67)[C@H]3CC5)[C@@H]4N2CCC1 |  | >4.76 µg/mL
CC1=C(O)c2cccc(O)c2C(=O)C1=O |  | 0.93 µg/mL
CCN(CC)c1ccc2nc3c4ccccc4c(=N)cc-3oc2c1 |  | 0.75 µg/mL
Nc1nc(=O)n([C@@H]2C=C[C@@H](CO)O2)cc1F |  | >100 µM
O=C(N/N=C/c1cccs1)c1ccncc1 |  | >62.5 µg/mL
O=CC1=C[C@@]2(O)CC/C=C\CCCCN3CC[C@@H]1[C@]1(C[C@@H]4/C=C\CCCCN4C12)C3 |  | >4.76 µg/mL

Blank or dashed fields: not listed here. CCn is the concentration with n% toxicity to the cells.